PubChem BioAssay AID504761 – Drosophila RNAi Screening Center, 2011
In all, the deposit lists about 22,000 reagents; shown is an unselected part of those that have a named target and a result. In the full data, 116 (0.52%) are marked active. 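Calls depend on retest data that are not deposited; infection was ranked per plate without normalising between plates; the unit of the infection score is not given.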 Raw values are not corrected between plates. A plus sign joins genes that one reagent is predicted to hit. The record does not give: the amount of reagent, the time to read-out.

- Test: 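Insect host genes that dengue virus relies on to spread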 (primary screen)
- Cell system: D.Mel-2 cells from Drosophila
- Reagents: long dsRNA against Drosophila genes
- Conditions: infection with dengue virus type 2; dose and infection time not stated
- Detection: 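Per well on two replicate plates, imaging gave the percent of cells positive for viral envelope protein, ranked by infection, and a nuclear count of cells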
- Scale: infection score: higher = more virus-infected cells; cell count: higher = more cells in the well
- Hit rule: 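Very low infection ranking in both replicate wells (chance probability at most 0.065), then a retest showing infection dropped 1.5-fold or more at p below 0.05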
- Meaning of the calls: active = confirmed: knock-down lowers infection; inactive = not picked or not confirmed

predicted target	dsRNA	infection score, replicate 1	infection score, replicate 2	cell count, replicate 1	cell count, replicate 2	outcome
Snapin + HemK2	DRSC26185	13	6.91	5145	6571	inactive
Fs(2)Ket	DRSC03328	13.4	13.6	763	538	inactive
Fs(2)Ket	DRSC23439	7.96	4.02	1181	946	inactive
CG10919	DRSC14283	5.14	11.3	6441	6518	inactive
GCS2alpha	DRSC21036	0.52	0.11	6682	6629	active
scat	DRSC02722	9.98	2.87	6084	6100	inactive
scat	DRSC27076	12.2	11.4	6812	6433	inactive
Ggt-1	DRSC19993	1.4	2.71	6792	5908	inactive
Ggt-1	DRSC27144	8.77	16	6405	6338	inactive
DAAM	DRSC18479	21.9	3.25	6509	6775	inactive
ppk25	DRSC04973	13.2	9.47	4686	2787	inactive
ppk25	DRSC27513	2.36	12.3	6612	6590	inactive
Eig71Ed	DRSC11151	5.31	1.56	5819	6284	inactive
slow	DRSC08589	9.62	1.01	6539	6437	inactive
slow	DRSC08590	2.33	1.96	6236	6069	inactive
slow	DRSC26083	12	1.85	5434	6820	inactive
CG18536	DRSC06763	10.2	15	5672	5964	inactive
Cyp317a1	DRSC07366	13.2	27.6	3743	5293	inactive
CG18538	DRSC06765	7.51	5.05	5794	6356	inactive
rogdi	DRSC10906	7.37	23.6	6066	5461	inactive
RpS19b	DRSC15773	9.64	7.6	3961	5266	inactive
Ing5	DRSC03188	22.6	12.7	6865	7086	inactive
Ing5	DRSC25216	3.25	9.18	7206	6305	inactive
mRpL14	DRSC18597	16.5	3.79	5269	5535	inactive
mRpL14	DRSC24034	14.2	7.21	5181	6023	inactive
Acbp1	DRSC03093	3.62	10.5	6154	6184	inactive
Acbp1	DRSC29718	13.8	7.91	6577	6211	inactive
HemK1	DRSC03253	3.41	3.03	6535	6558	inactive
CG7272	DRSC10795	1.67	6.03	6711	6515	inactive
Amy-d + Amy-p	DRSC21242	1.19	4.44	5898	6076	inactive
Amy-d + Amy-p	DRSC24129	1.54	1.36	6495	6270	inactive
CG4053	DRSC15538	4.21	15.8	6813	5532	inactive
CG4053	DRSC29364	18.5	17.2	5916	6307	inactive
Twdlalpha	DRSC19914	21.9	13.7	4957	5617	inactive
Twdlalpha	DRSC28661	18.2	12.8	5718	3864	inactive
CG34458	DRSC06925	4.96	13.3	6875	6382	inactive
CG6610	DRSC10674	1.17	2.7	5579	5293	inactive
Phf5a	DRSC03261	4.34	0.9	6244	6658	inactive
CG11369	DRSC17779	16.3	9.2	5407	5698	inactive

Records listed above marked active, once more:
predicted target	dsRNA	infection score, replicate 1	infection score, replicate 2	cell count, replicate 1	cell count, replicate 2	outcome
GCS2alpha	DRSC21036	0.52	0.11	6682	6629	active
